Legend:
[1] = test system: HIV-1 replication in H9 lymphocyte cells; details: Fujioka et al. 1994; cited from earlier work
[2] = test system: HIV-1 (IIIB isolate); format: cell-based; details: ratio of cytotoxicity IC50 to anti-HIV EC50
Experimental: The biological evaluation of HIV-1 inhibition was carried out as follows according to established protocols (Montefiori et al., Clin Microbiol. 26:231-235 (1988)). The human T-cell line, MT-2, was maintained in continuous culture with complete medium (RPMI 1640 with 10% fetal calf serum supplemented with L-glutamine at 5% CO2 and 37° C.). Test samples were first dissolved in dimethyl sulfoxide at a concentration of 10 mg/ml to generate master stocks with dilutions made into tissue culture media to generate working stocks. The following drug concentrations were routinely used for screening: 100, 20, 4 and 0.8 μg/ml. For agents found to be active, additional dilutions were prepared for subsequent testing so that an accurate EC50 value (defined below) could be determined. Test samples were prepared and to each sample well was added 90 μl of media containing MT-2 cells at 3×10^5 cells/ml and 45 μl of virus inoculum (HIV-1 IIIIB isolate) at a concentration necessary to result in 80% killing of the cell targets at 5 days post-infection (PI). Control wells containing virus and cells only (no drug) and cells only (no virus or drug) were also prepared. A second set of samples were prepared identical to the first and were added to cells under identical conditions without virus (mock infection) for toxicity determinations (IC50 defined below). In addition, AZT was also assayed during each experiment as a positive drug control. On day 5 PI, virus-induced cell killing was determined by measuring cell viability using the XTT method. Compound toxicity was determined by XTT using the mock-infected samples. If a test sample had suppressive capability and was not toxic, its effects were reported in the following terms: IC50, the concentration of test sample which was toxic to 50% of the mock-infected MT-2 cells; EC50, the concentration of the test sample that was able to suppress HIV replication by 50%; and the Therapeutic index (TI) the ratio of the IC50 to EC50.
Compounds of the present invention were assayed for anti-HIV activity according to the following assay procedures. The T cell line, H9, and the promonocytic cell line, U937, were maintained separately in continuous culture with complete medium (RPMI 1640 with 10% fetal calf serum) at 5% CO2 and 37° C. The cell lines were used in experiments only when in the logarithmic phase of growth, whereas uninfected peripheral blood mononuclear cells (PBMCs) were first stimulated with PHA (1 μg/mL) for three days. All cell targets were incubated with HIV-1 (IIIB isolate, 1×10^6 TCID50/mL) for one hour at 37° C. and 5% CO2. The cell lines and PBMCs were washed thoroughly to remove unadsorbed virions and resuspended at 4×10^5 cells/mL in complete medium or complete medium with 10% v/v interleukin 2 (IL-2), respectively. 100 μL aliquots were placed into wells of 96-well tissue culture plates containing an equal volume of test compounds (diluted in the appropriate culture medium). The toxicity of each compound was assessed by determining the number of compound-exposed uninfected cells that remained after five days at 37° C. and 5% CO2. A p24 antigen ELISA assay was used to determine the level of virus released in the medium of the HIV-infected cultures. […] The cutoff for the p24 ELISA assay was 12.5 pg/mL. p24 in the culture medium was quantitated against a standard curve containing known amounts of p24. The effective (EC50) and inhibitory (IC50) concentrations for anti-HIV activity and cytotoxicity, respectively, were determined.

Row | SMILES | T.I. value [1] | Therapeutic Index (=IC50/EC50) [2]
1 | C=C(C)[C@@H]1CC[C@]2(C(=O)O)CC[C@]3(C)[C@H](CC[C@@H]4[C@@]5(C)CC[C@H](O)C(C)(C)[C@@H]5CC[C@]43C)[C@@H]12 [Betulinic acid, betulinic acid] | 9.3 | –
2 | C=C(C)[C@@H]1CC[C@]2(CO)CC[C@]3(C)[C@H](CC[C@@H]4[C@@]5(C)CC[C@H](OC(=O)CC(C)(C)C(=O)O)C(C)(C)[C@@H]5CC[C@]43C)[C@@H]12 [Compound 6] | – | 5975
3 | C=C(C)[C@@H]1CC[C@]2(CO)CC[C@]3(C)[C@H](CC[C@@H]4[C@@]5(C)CC[C@H](OC(=O)CC(C)(C)CC(=O)O)C(C)(C)[C@@H]5CC[C@]43C)[C@@H]12 [Compound 8] | – | 6568
4 | C=C(C)[C@@H]1CC[C@]2(CO)CC[C@]3(C)[C@H](CC[C@@H]4[C@@]5(C)CC[C@H](OC(=O)CCCC(=O)O)C(C)(C)[C@@H]5CC[C@]43C)[C@@H]12 [Compound 10, 3-O-glutaryl betulin] | – | 670
5 | C=C(C)[C@@H]1CC[C@]2(CO)CC[C@]3(C)[C@H](CC[C@@H]4[C@@]5(C)CC[C@H](OC(=O)COCC(=O)O)C(C)(C)[C@@H]5CC[C@]43C)[C@@H]12 [Compound 12] | – | >1819
6 | C=C(C)[C@@H]1CC[C@]2(CO)CC[C@]3(C)[C@H](CC[C@@H]4[C@@]5(C)CC[C@H](OC(=O)CCCC(=O)OCC)C(C)(C)[C@@H]5CC[C@]43C)[C@@H]12 [Compound 18, 3-O-glutaryl betulin ethyl ester] | – | 55340
7 | CC(C)[C@@H]1CC[C@]2(C(=O)O)CC[C@]3(C)C(CCC4[C@@]5(C)CC[C@H](O)C(C)(C)C5CC[C@]43C)C12 (some centres unmarked) [dihydrobetulinic acid] | 14 | –
8 | CC(=O)[C@@H]1CC[C@]2(C(=O)O)CC[C@]3(C)[C@H](CC[C@@H]4[C@@]5(C)CC[C@H](O)C(C)(C)[C@@H]5CC[C@]43C)[C@@H]12 [platanic acid] | 14 | –

From patent US7365221B2, “Monoacylated betulin and dihydrobetulin derivatives, preparation thereof and use thereof” (priority 2002, dated 2008)
